Source: paper PMC5775428, “Towards an experimental classification system for membrane active peptides” (Scientific Reports, 2018)

What was measured:
[1] = DSC of DMPC LUVs with peptide; details: 2016 dataset; for Tm_broad_pc, transition temperature of broad component: 0.5 mM DMPC LUVs + 20 μM peptide (4 mol%), pH 7.4, P′β→Lα transition, non-two state fit; for H_broad_pc, transition enthalpy of broad component / H_sharp_pc, transition enthalpy of sharp component / Hv_broad_pc, van´t Hoff transition enthalpy of broad component / Hv_sharp_pc, van´t Hoff transition enthalpy of sharp component / Tm_sharp_pc, transition temperature of sharp component: DMPC LUVs + 4 mol% peptide
[2] = DSC of 2:1 DMPC:DMPG LUVs with peptide; details: for Tm_broad_pcpg, transition temperature of broad component: 0.5 mM 2:1 DMPC:DMPG LUVs + 20 μM peptide (4 mol%), pH 7.4, 2016 dataset; for H_broad_pcpg, transition enthalpy of broad component / H_sharp_pcpg, transition enthalpy of sharp component / Hv_broad_pcpg, van´t Hoff transition enthalpy of broad component / Hv_sharp_pcpg, van´t Hoff transition enthalpy of sharp component / Tm_sharp_pcpg, transition temperature of sharp component: 2:1 DMPC:DMPG LUVs + 4 mol% peptide, 2016 dataset
[3] = Far-UV CD, percent helicity with DMPC LUVs; assay type: physicochemical; details: CD [θ]222 nm, 40 μM peptide + DMPC LUVs, 2016 dataset
[4] = Far-UV CD, percent helicity with 2:1 DMPC:DMPG LUVs; assay type: physicochemical; details: CD [θ]222 nm, 40 μM peptide + 2:1 DMPC:DMPG LUVs, 2016 dataset
[5] = PCA2 and hierarchical clustering of DSC data; set-up: key: Cluster 1 is composed by molecules with no significant interaction with the evaluated model membranes; Cluster 2 peptides present no detectable interaction with DMPC LUVs but disturb the main phase transition of 2:1 DMPC:DMPG LUVs; Cluster 3: Clusters 3 and 4 are populated by IAPs and AMPs that alter the main phase transition DMPC and 2:1 DMPC:DMPG LUVs and present significant and broad antimicrobial activity; Cluster 4: Clusters 3 and 4 are populated by IAPs and AMPs that alter the main phase transition DMPC and 2:1 DMPC:DMPG LUVs and present significant and broad antimicrobial activity; Cluster 5: The peptide cluster 5 is composed solely of AMPs; details: cluster membership from HCA of first five principal components of PCA2 (DSC data)
[6] = Far-UV CD, percent helicity in buffer; assay type: physicochemical; details: CD [θ]222 nm, 40 μM peptide in buffer, method of Chen et al., 2016 dataset

Sequence	Tm_broad_pc, transition temperature of broad component [1] [°C]	H_broad_pc, transition enthalpy of broad component [1] [kcal/mol]	H_sharp_pc, transition enthalpy of sharp component [1] [kcal/mol]	Hv_broad_pc, van´t Hoff transition enthalpy of broad component [1] [kcal/mol]	Hv_sharp_pc, van´t Hoff transition enthalpy of sharp component [1] [kcal/mol]	Tm_sharp_pc, transition temperature of sharp component [1] [°C]	Tm_broad_pcpg, transition temperature of broad component [2] [°C]	H_broad_pcpg, transition enthalpy of broad component [2] [kcal/mol]	H_sharp_pcpg, transition enthalpy of sharp component [2] [kcal/mol]	Hv_broad_pcpg, van´t Hoff transition enthalpy of broad component [2] [kcal/mol]	Hv_sharp_pcpg, van´t Hoff transition enthalpy of sharp component [2] [kcal/mol]	Tm_sharp_pcpg, transition temperature of sharp component [2] [°C]	% Helicity 0.01 peptide/DMPC (mol/mol) [3] [%]	% Helicity 0.01 peptide/(2:1 DMPC/DMPG) (mol/mol) [4] [%]	Cluster [5]	% Helicity (Buffer) [6] [%]
ANRLLEAYKMLLKFLGNLR [Gr02, putative IAP, KJB26672.1 (254–272)]	25.09	3574	772	91960	310200	22.06	24.93	2987	2606	105100	313200	21.34	50.5	64.2	Cluster 4	56.7
FFYNVIKIYGNMAGRISK [Cs03, putative IAP, KDO49351.1 (129–146)]	–	–	–	–	–	–	–	–	–	–	–	–	–	–	Cluster 2	–
GAKLAKKQVRALGKFFSF [At03, putative IAP, NP_176750.1 (209–226)]	–	–	–	–	–	–	–	–	–	–	–	–	-1.2	30.8	Cluster 1	-1.2
GFKDLLKGAAKALVKTVLF [Asc-8, Ascaphin 8, reference compound]	–	–	–	–	–	–	–	–	–	–	–	–	74.2	88.5	Cluster 4	2.7
GFKLGRKLVKVFKWII [Gr01, putative IAP, XP_012439503.1 (6–21)]	–	–	–	–	–	–	–	–	–	–	–	–	57.7	115.0	Cluster 3	0.9
GIVLKDLFSEKLRRYKIVIG [Tc09, putative IAP, EOY11242.1 (688–707)]	–	–	–	–	–	–	–	–	–	–	–	–	19.3	-0.8	Cluster 2	12.3
GKILKYLLYLLRKYANLIIR [Tc02, putative IAP, EOX91068.1 (202–221)]	23.55	5200	1461	84750	272000	21.94	–	–	–	–	–	–	65.6	77.0	Cluster 4	60.4
GLLFKELQKLIRYQIFIGK [Tc10, putative IAP, EOY11257.1 (701–719)]	23.20	4147	2638	177000	539000	23.68	–	–	–	–	–	–	5.1	49.6	Cluster 2	20.3
GLYNFIKVLGRTVFGLYKQF [At04, putative IAP, NP_176750.1 (334–353)]	23.78	3819	1297	257000	799000	24.11	–	–	–	–	–	–	–	–	Cluster 1	–
GSLHGFMYKYLKNMVLNLF [Tc06, putative IAP, EOY24636.1 (117–135)]	–	–	–	–	–	–	24.91	2727	2599	113800	563300	23.43	31.5	34.9	Cluster 3	29.4
GSLHGFMYKYLKNMVLTLF [At01, putative IAP, NP_172734.2 (118–136)]	–	–	–	–	–	–	–	–	–	–	–	–	26.4	28.4	Cluster 3	32.4
GSLHGFMYKYLKTLVLRLY [Zm01, putative IAP, XP_008663476.1 (153–171)]	–	–	–	–	–	–	–	–	–	–	–	–	42.2	65.5	Cluster 3	31.0
GSLHGFMYRYLKNMVLNLF [Cs01, putative IAP, XP_006477592.1 (117–135)]	–	–	–	–	–	–	–	–	–	–	–	–	37.8	27.5	Cluster 3	26.3
IKLRNVLKYLFRIDVIKEDIL [Tc03, putative IAP, Tc05_g014340 (12–32)]	–	–	–	–	–	–	24.86	2096	820.2	115200	129200	20.02	36.8	50.7	Cluster 4	40.4
IVNHLVKLFDKGLNSIVNLR [Tc05, putative IAP, EOY07102.1 (47–66)]	–	–	–	–	–	–	–	–	–	–	–	–	34.9	68.8	Cluster 2	8.3
KVLSKVHTLLKAVLAL [At02, putative IAP, SIP121-0-PQ4 (45–60)]	25.10	2915	3114	125000	500300	23.35	–	–	–	–	–	–	32.6	79.8	Cluster 3	13.3
LHRLVKLVAALLRGYASKVDTH [Tc08, putative IAP, EOY11557.1 (289–310)]	–	–	–	–	–	–	–	–	–	–	–	–	40.4	62.1	Cluster 4	9.0
LIKVVNHVQYNVTLHWHGIR [Tc07, putative IAP, EOY07477.1 (79–98)]	23.28	4043	2363	199800	664100	23.94	–	–	–	–	–	–	–	–	Cluster 1	–
RVLKDVESALRESVANWKIVIG [Tc04, putative IAP, EOY21465.1 (193–214)]	23.29	3780	2686	190000	607000	23.93	–	–	–	–	–	–	15.8	36.3	Cluster 1	14.3
VALRLAKEVIKVQQGW [Tc01, putative IAP, EOX93337.1 (95–110)]	23.32	3988	2392	202000	649000	23.94	–	–	–	–	–	–	4.5	64.8	Cluster 3	5.0
VWTTAMEKSSAANFSMSRNQRRSSLHSL [gb|AAD22970.1|(120-148)]	–	–	–	–	–	–	–	–	–	–	–	–	–	–	Cluster 2	–
